Pooled drug test results. Numbers come from NIAID ChemDB, via PubChem.

Common to all: tests on isolated targets; species: HIV-1; protein: Protease; measure: inhibition

Inhibition is in % at the dose shown (toxicity tests: loss of growth or viability). Rows are shuffled and stem from different studies.

O=C1OC2[C@H]3COC(=O)c4cc(O)c(O)c5c4C4C(=CC(=O)[C@@](O)(O5)C4(O)O)C(=O)O[C@@H]2[C@@H](OC(=O)c2cc(O)c(O)c4c2C2C1=CC(=O)[C@](O)(O4)C2(O)O)[C@H](OC(=O)c1cc(O)c(O)c(O)c1)O3 ; method: fluorescence ; tested at: 50 µg/mL ; result: 61.1%
CC(C)[C@H](NC(=O)OCc1ccccn1)C(=O)N[C@@H](Cc1ccccc1)[C@H](O)[C@@H](O)[C@H](Cc1ccccc1)NC(=O)[C@@H](NC(=O)OCc1ccccn1)C(C)C ; method: fluorescence ; tested at: 0.001 µM ; result: 84%
COc1cc(O)c2c(=O)c(O)c(-c3ccc(OC)c(O)c3)oc2c1 ; method: fluorescence ; tested at: 50 µg/mL ; result: 12.9%
CCOc1ccccc1CNC(=O)[C@H]1N(C(=O)[C@@H](O)[C@H](Cc2ccccc2)NC(=O)COc2c(C)cccc2C)CSC1(C)C ; method: HPLC ; tested at: 0.05 µM ; result: 41.7%
CC1=NNc2nc3c(c(=O)n(Cc4ccccc4)c(=O)n3C)n2C1 ; tested at: 150 µM ; result: 34.92%
COc1ccc(-c2oc3cc(O)cc(O)c3c(=O)c2O)cc1 ; method: fluorescence ; tested at: 50 µg/mL ; result: 20%
CC(C)[C@H](NC(=O)OCc1ccccc1)C(=O)N[C@@H](Cc1ccccc1)C(O)[C@H](Cc1ccccc1)NC(=O)[C@@H](NC(=O)OC(C)(C)C)C(C)C ; method: fluorescence ; tested at: 0.1 µM ; result: 53%
CC(C)[C@H](N)C(=O)N[C@H](C(=O)N[C@@H](CC(N)=O)C(=O)O)[C@@H](C)O ; strain: BH10 ; method: HPLC ; tested at: 100 µM ; result: <1%
Cc1cccc(C)c1OCC(=O)N[C@@H](Cc1ccccc1)[C@H](O)C(=O)N1CSC(C)(C)[C@H]1C(=O)NCc1ccncc1 ; method: HPLC ; tested at: 0.05 µM ; result: 70.7%
CC(C)[C@H](NC(=O)CCC1CCCCN1)C(=O)N[C@@H](Cc1ccccc1)C(O)[C@H](Cc1ccccc1)NC(=O)[C@@H](NC(=O)CCC1CCCCN1)C(C)C ; method: fluorescence ; tested at: 0.01 µM ; result: 46%
Cc1ccccc1-n1nnc(C(c2ccccc2)(c2ccccc2)n2ccnc2)c1C ; method: substrate cleavage / fluorescence ; tested at: 10 µg/mL ; result: 22.1%
CCC(Cc1ccccc1)c1cc(O)c(C(CC)c2ccccc2)c(=O)o1 ; method: substrate cleavage ; tested at: 9 µM ; result: 13%
Cc1cccc(C)c1OCC(=O)N[C@@H](Cc1ccccc1)[C@H](O)C(=O)N1CSC(C)(C)[C@H]1C(=O)NN(C)c1ccccc1 ; method: HPLC ; tested at: 0.05 µM ; result: 15.3%
CC(C)[C@H](NC(=O)OCc1ccccc1)C(=O)N[C@@H](Cc1ccccc1)[C@H](O)[C@H](Cc1ccccc1)NC(=O)[C@@H](NC(=O)OCc1ccncc1)C(C)C ; method: fluorescence ; tested at: 0.005 µM ; result: 47%
Cc1c(O)cccc1C(=O)N[C@@H](Cc1ccccc1)[C@H](O)C(=O)N1CSC(C)(C)[C@H]1C(=O)NCc1ccncc1 ; method: HPLC ; tested at: 0.05 µM ; result: 34.5%
CC(C)[C@H](NC(=O)OCc1ccncc1)C(=O)N[C@@H](Cc1ccccc1)[C@@H](O)[C@H](O)[C@H](Cc1ccccc1)NC(=O)[C@@H](NC(=O)OCc1ccncc1)C(C)C ; method: fluorescence ; tested at: 0.005 µM ; result: 74%
O=C(/C=C/c1ccc(O)c(O)c1)c1ccc(O)cc1O ; method: HPLC ; tested at: 50 µg/mL ; result: 46.9%
COc1ccccc1CNC(=O)[C@H]1N(C(=O)[C@@H](O)[C@H](Cc2ccccc2)NC(=O)COc2c(C)cccc2C)CSC1(C)C ; method: HPLC ; tested at: 0.05 µM ; result: 24%
CC(C)[C@H](NC(=O)OCc1ccccn1)C(=O)N[C@@H](Cc1ccccc1)[C@H](O)[C@H](O)[C@H](Cc1ccccc1)NC(=O)CCC(=O)O ; method: fluorescence ; tested at: 0.01 µM ; result: 68%
CCOc1ccccc1CNC(=O)[C@H]1N(C(=O)[C@@H](O)[C@H](Cc2ccccc2)NC(=O)c2cccc(O)c2C)CSC1(C)C ; method: HPLC ; tested at: 0.05 µM ; result: 49.7%
O=c1c(O)c(-c2ccc(O)c(O)c2)oc2c(O[C@@H]3O[C@H](CO)[C@@H](O)[C@H](O)[C@H]3O)c(O)cc(O)c12 ; method: fluorescence ; tested at: 50 µg/mL ; result: 51.2%
Cc1cccc(C)c1OCC(=O)N[C@@H](Cc1ccccc1)[C@H](O)C(=O)N1CSC(C)(C)[C@H]1C(=O)NCc1cccc(C(N)=O)c1 ; method: HPLC ; tested at: 0.05 µM ; result: 67.7%
CCC(c1cccc(NC(=O)CCCCc2ccccc2)c1)c1c(O)c2ccccc2oc1=O ; method: substrate cleavage ; tested at: 10 µM ; result: 14%
CC(C(=O)O)C(C)C(=O)N[C@@H](Cc1ccccc1)[C@H](O)C(=O)N1CSC[C@H]1C(=O)NC(C)(C)C ; tested at: 96.5 µM ; result: 5%
O=C1CC(c2ccc(O)c(O)c2)Oc2cc(O)cc(O)c21 ; method: fluorescence ; tested at: 50 µg/mL ; result: 19.5%
Cc1c(F)cccc1NS(=O)(=O)c1ccc2c(c1)CCC(=O)N2 ; tested at: 150 µM ; result: 28.04%
N[C@@H](Cc1ccccc1)C(O)[C@@H](N)Cc1ccccc1 ; method: fluorescence ; tested at: 50 µM ; result: 75%
O=C1c2cccc([N+](=O)[O-])c2C(=O)N1c1ccc2[nH]c(=S)sc2c1 ; tested at: 150 µM ; result: 63.07%
COc1ccc(-c2cc(=O)c3c(OC)c(OC)c(OC)c(OC)c3o2)cc1 ; method: fluorescence ; tested at: 50 µg/mL ; result: 48%
COc1ccc(NS(=O)(=O)c2ccc3c(c2)NC(=O)CC(=O)N3)c(OC)c1 ; tested at: 150 µM ; result: 37.94%
CC(C)[C@H](NC(=O)OCc1ccccn1)C(=O)NC(Cc1ccccc1)C(O)C(F)(F)C(Cc1ccccc1)NC(=O)OC(C)(C)C ; method: fluorescence ; tested at: 0.01 µM ; result: 48%
O=C(O[C@@H]1O[C@@H]2COC(=O)c3cc(O)c(O)c(O)c3-c3c(cc(O)c(O)c3O)C(=O)O[C@H]([C@H]1O)[C@@H]2O)c1cc(O)c(O)c(O)c1 ; method: fluorescence ; tested at: 50 µg/mL ; result: 91.4%